A mixed list of measured activities; the numbers were collected in NIAID ChemDB.

Shared fields: toxicity to cultured cells; cells: E6SM; endpoint: CC50

Two numbers with a dash give a range or band.

structure,value
O=c1[nH]c(=O)n([C@@H]2CO[C@H](CO)[C@@H](O)C2)cc1I,>400 µg/mL
NC1CSCCN2CCc3c([nH]c4ccccc34)[C@H]12,100 µg/mL
CCC(Sc1ncnc2c1cnn2CCCCO)C(N)=O,>400 µg/mL
CC(C)CS[C@@H]1C[C@H](n2cnc3c(N)ncnc32)[C@@H](O)[C@H]1O,80–400 µg/mL
Nc1ncnc2c1ncn2[C@@H]1C[C@@H](O)[C@@H](O)[C@H]1O,>400 µg/mL
C=Cc1cn([C@@H]2CO[C@H](CO)[C@@H](O)C2)c(=O)[nH]c1=O,>400 µg/mL
CCc1nc(CC(=O)NN=C(C)C)nn1CC,>400 µg/mL
Nc1nc2c(ncn2COC(CO)CO)c(=O)[nH]1,>100 µg/mL
COc1ccc(-n2c(Cc3nc4n(n3)CCCC4)n[nH]c2=S)cc1,400 µg/mL
CC1(C)[C@@H](CO)CC[C@@]1(C)Cn1nnc2c(N)ncnc21,>400 µg/mL
Cc1nc(Cc2n[nH]c(=S)n2-c2ccccc2)nn1C,400 µg/mL
O=c1[nH]c(=O)n(C2C[C@H](CO)[C@@H](CO)C2)cc1I,>200 µg/mL
CO[C@H](CO)[C@@H](O)CCn1cc(C)c(=O)[nH]c1=O,>400 µg/mL
CC1(C)[C@@H](CO)CC[C@@]1(C)Cn1cc(Br)c(=O)[nH]c1=O,>400 µg/mL
O=c1ccn([C@@H]2C[C@H](CO)C[C@H]2CO)c(=O)[nH]1,>200 µg/mL
Cc1cn(CC[C@H](O)CCO)c(=O)[nH]c1=O,>400 µg/mL
CCn1nc(CC(=O)N/N=C/c2ccco2)nc1C,>400 µg/mL
Nc1nc2c(ncn2[C@@H]2C=C[C@H](CO)[C@@H](O)C2)c(=O)[nH]1,>400 µg/mL
Nc1ncnc2c1ncn2CC[C@H](O)CCO,>400 µg/mL
CCSC1NN=C(Cc2nc(C)n(C)n2)N1c1ccccc1,400 µg/mL
CC(Sc1ncnc2c1cnn2COCC(O)CO)C(N)=O,>400 µg/mL
O=c1[nH]c(=O)n([C@H]2C[C@H](O)[C@@H](CO)O2)cc1/C=C/Br,>400 µM
CC(Sc1ncnc2c1cnn2COCCO)C(N)=O,>400 µg/mL
CO[C@H](CO)[C@@H](O)CCn1cnc2c(N)ncnc21,>400 µg/mL
COC(=O)C(C)(C)NP(=O)(OC[C@H]1O[C@@H](n2cc(/C=C/Br)c(=O)[nH]c2=O)C[C@@H]1O)Oc1ccccc1,>400 µM
CC1(C)[C@@H](CO)CC[C@@]1(C)Cn1nnc2c(=O)[nH]cnc21,>400 µg/mL

The last 2 rows once more:

structure	value
COC(=O)C(C)(C)NP(=O)(OC[C@H]1O[C@@H](n2cc(/C=C/Br)c(=O)[nH]c2=O)C[C@@H]1O)Oc1ccccc1	>400 µM
CC1(C)[C@@H](CO)CC[C@@]1(C)Cn1nnc2c(=O)[nH]cnc21	>400 µg/mL

Lines come from different laboratories, so protocols vary. CCn is the concentration with n% toxicity to the cells.